Anti-infective test results gathered from many reports (values: NIAID ChemDB through PubChem).

All rows: growth or infection tests; species: Aspergillus fumigatus

MIC50, MIC90 and the like: level of inhibition, or share of isolates inhibited.

smiles,strain,read by,read-out,result
Cc1ccc(C2=C(c3ccc(OCC(O)(Cn4cncn4)c4ccc(F)cc4F)cc3)C(=O)OC2)cc1,ATCC 46645,broth dilution,MIC50,4 µg/mL
CC(O)Cc1ccc(Cn2cc(CN3CCN([C@H](C)[C@](O)(Cn4cncn4)c4ccc(F)cc4F)CC3)c3cccc(F)c32)cc1,ATCC 16424,resazurin,MIC80,>128 µg/mL
COc1cc(/C=C2\SC(=S)NC2=O)cc(OC)c1OCC(O)(Cn1cncn1)c1ccc(F)cc1F,ATCC 46645,broth dilution,MIC50,16 µg/mL
C[C@@H](n1ccn(-c2ccc(OC(F)(F)F)cc2)c1=O)C(O)(Cn1cncn1)c1ccc(F)cc1F,IFO6344,,MIC,2 µg/mL
CCC(C)CC(C)CCCCCCCCC(=O)N[C@H]1C[C@@H](O)[C@H](NCCN)NC(=O)[C@@H]2[C@@H](O)CCN2C(=O)[C@H]([C@H](O)CCN)NC(=O)[C@H]([C@H](O)[C@@H](O)c2ccc(O)cc2)NC(=O)[C@@H]2C[C@@H](O)CN2C(=O)[C@H]([C@@H](C)O)NC1=O,26 isolates,,Geometric mean MEC,0.31 µg/mL
O=Cc1cc(-c2cccc(Cl)c2)no1,Clinical isolates,,EC50,22.16 µg/mL
CCC(C)n1ncn(-c2ccc(N3CCN(c4ccc(OC[C@H]5CO[C@](Cn6cncn6)(c6ccc(Cl)cc6Cl)O5)cc4)CC3)cc2)c1=O,35 isolates,,MFC90,16 µg/mL
FC(F)(F)c1nc(OCc2nc(-c3cccs3)n[nH]2)c2ccccc2n1,MTCC 343,,MIC100,12.5 µg/mL
C[C@@H](c1ncncc1F)[C@](O)(Cn1cncn1)c1ccc(F)cc1F,,broth dilution,MIC50,0.25 µg/mL
C[C@@H](n1ccn(-c2ccc(OC(F)(F)C(F)F)cc2)c1=O)C(O)(Cn1cncn1)c1ccccc1F,IFO6344,,MIC,2 µg/mL
Clc1ccc(-c2n[nH]c(COc3ncnc4ccccc34)n2)cc1,MTCC 343,,MIC100,25 µg/mL
COc1cc(C=O)cc(OC)c1OCC(O)(Cn1cncn1)c1ccc(F)cc1F,ATCC 46645,broth dilution,MIC50,128 µg/mL
CCN1CCC(O)(/C=C/c2ccc(Cl)cc2)C(C(=O)/C=C/c2ccc(Cl)cc2)C1,18 strains (amphotericin B-resistant),,Mean MIC,4.6 µg/mL
COC(=O)[C@H]1[C@@H]2C[C@@H](O[C@@H]3O[C@H](C)[C@@H](O)[C@H](N)[C@@H]3O)/C=C/C=C/C=C/C=C/C=C/C=C/C=C/[C@H](C)[C@@H](O)[C@H](C)[C@H](C)OC(=O)C[C@H](O)C[C@H](O)[C@@H](O)CC[C@H](O)C[C@H](O)C[C@](O)(C[C@@H]1O)O2,35 isolates,,Geometric mean MIC,0.87 µg/mL
O=Cc1cc(-c2ccc(Cl)cc2)no1,Clinical isolates,,EC50,21.96 µg/mL
C[C@H]1[C@H](O)[C@@H](C)/C=C/C=C/C=C/C=C/C=C/C=C/C=C/[C@H](O[C@@H]2O[C@H](C)[C@@H](O)[C@H](N)[C@@H]2O)C[C@@H]2O[C@](O)(C[C@@H](O)C[C@@H](O)CC[C@H](O)[C@@H](O)C[C@@H](O)CC(=O)O[C@H]1C)C[C@H](O)[C@H]2C(=O)O,35 isolates,,Geometric mean MFC,1.08 µg/mL
Cc1onc(-c2cccc(Br)c2)c1C=O,Clinical isolates,,EC50,8.86 µg/mL
Nc1ncccc1-c1cc(Cc2ccc(COc3ccccn3)cc2)no1,IFM 51126,broth dilution,MIC50,0.03 µg/mL
CC1(O)OC(=O)C(c2ccc(OCC(O)(Cn3cncn3)c3ccc(F)cc3F)cc2)=C1c1ccc(F)cc1F,ATCC 46645,broth dilution,MIC50,16 µg/mL
CCC(C)n1ncn(-c2ccc(N3CCN(c4ccc(OC[C@H]5CO[C@](Cn6cncn6)(c6ccc(Cl)cc6Cl)O5)cc4)CC3)cc2)c1=O,94 isolates,,Geometric mean MFC,1.57 µg/mL
c1ccc(-c2ccc(C(c3ccccc3)n3ccnc3)cc2)cc1,ATCC 9142,broth dilution,MFC,200 µg/mL
C[C@@H](N1CCN(c2ccc(OC(F)(F)C(F)F)cc2)C1=O)C(O)(Cn1cncn1)c1ccccc1F,TIMM1728,,MIC,0.25 µg/mL
Cc1ccc(C(C)C)cc1O,F17,,MLC,0.16 µg/mL
COc1ccc(C2=C(c3ccc(OCC(O)(Cn4cncn4)c4ccc(F)cc4F)cc3)C(=O)OC2)cc1,ATCC 46645,broth dilution,MIC50,8 µg/mL
NCCNC(=O)C1=Nc2ccc(NC(=O)C3=Nc4ccc(C(=O)Nc5ccc6[nH]c(C(=O)NCCN)cc6c5)cc4C3)cc2C1,,,MFC,>25 µg/mL
C[C@@H]1CCC2(OC1)OC1CC3C4C[C@H](OC5O[C@@H](CO)[C@H](O)[C@@H](O)[C@@H]5O)[C@H]5C[C@@H](OC6O[C@H](CO)[C@@H](O)[C@H](O)[C@H]6O)CC[C@]5(C)C4CC[C@]3(C)C1[C@@H]2C,ATCC 90906,,MFC,>20 µg/mL
C[C@@H](c1ncncc1F)[C@](O)(Cn1cncn1)c1ccc(F)cc1F,150 clinical isolates,,MIC50,0.25 µg/mL
COc1cc(-c2n[nH]c(COc3ncnc4ccccc34)n2)cc(OC)c1OC,MTCC 343,,MIC100,6.25 µg/mL
CC(C)CC(O)C(=O)O,MRCM 24290,broth dilution / visual reading,MFC100,18000 µg/mL
C[C@@H](n1ccn(-c2ccc(C(F)(F)F)cc2)c1=O)C(O)(Cn1cncn1)c1ccc(F)cc1F,TIMM1728,,MIC,4 µg/mL
CCCCCOc1ccc(-c2ccc(-c3ccc(C(=O)N[C@H]4C[C@@H](O)[C@@H](O)NC(=O)[C@@H]5[C@@H](O)[C@@H](C)CN5C(=O)[C@H]([C@H](C)O)NC(=O)[C@H]([C@H](O)[C@@H](O)c5ccc(O)cc5)NC(=O)[C@@H]5C[C@@H](O)CN5C(=O)[C@H]([C@H](C)O)NC4=O)cc3)cc2)cc1,92-270,,MFC,>50 µg/mL
COc1ccc(-c2n[nH]c(COc3nc(C(F)(F)F)nc4ccccc34)n2)cc1,MTCC 343,,MIC100,25 µg/mL
C[C@@H](n1ccn(-c2ccc(OCC(F)(F)C(F)F)cc2)c1=O)C(O)(Cn1cncn1)c1ccc(F)cc1F,437,,MIC,2 µg/mL
O=Cc1cc(-c2ccc(Cl)cc2Cl)no1,Clinical isolates,,EC50,27.5 µg/mL
C[C@@H](n1ccn(-c2ccc(OCC(F)(F)C(F)F)cc2)c1=O)C(O)(Cn1cncn1)c1ccccc1F,437,,MIC,2 µg/mL
CCC(C)CC(C)CCCCCCCCC(=O)N[C@H]1C[C@@H](O)[C@H](NCCN)NC(=O)[C@@H]2[C@@H](O)CCN2C(=O)[C@H]([C@H](O)CCN)NC(=O)[C@H]([C@H](O)[C@@H](O)c2ccc(O)cc2)NC(=O)[C@@H]2C[C@@H](O)CN2C(=O)[C@H]([C@@H](C)O)NC1=O,28 isolates,,MIC90,0.25 µg/mL
COc1ccc(-c2n[nH]c(COc3nc(C)nc4ccccc34)n2)cc1OC,MTCC 343,,MIC100,25 µg/mL
C[C@@H](c1ncncc1F)[C@](O)(Cn1cncn1)c1ccc(F)cc1F,,,MLC90,0.5 µg/mL

An empty or dashed field is not shown. Neighbouring rows are from separate reports. ECn is the concentration giving n% inhibition of infection, replication or growth.